From ChEMBL document CHEMBL5390309, “Characterization of 2,4-Dianilinopyrimidines Against Five P. falciparum Kinases PfARK1, PfARK3, PfNEK3, PfPK9, and PfPKB” (2023)

Target: T1, Glycogen synthase kinase 3 (Plasmodium falciparum (isolate 3D7)) (UniProt O77344)
T1 sequence (whole entry): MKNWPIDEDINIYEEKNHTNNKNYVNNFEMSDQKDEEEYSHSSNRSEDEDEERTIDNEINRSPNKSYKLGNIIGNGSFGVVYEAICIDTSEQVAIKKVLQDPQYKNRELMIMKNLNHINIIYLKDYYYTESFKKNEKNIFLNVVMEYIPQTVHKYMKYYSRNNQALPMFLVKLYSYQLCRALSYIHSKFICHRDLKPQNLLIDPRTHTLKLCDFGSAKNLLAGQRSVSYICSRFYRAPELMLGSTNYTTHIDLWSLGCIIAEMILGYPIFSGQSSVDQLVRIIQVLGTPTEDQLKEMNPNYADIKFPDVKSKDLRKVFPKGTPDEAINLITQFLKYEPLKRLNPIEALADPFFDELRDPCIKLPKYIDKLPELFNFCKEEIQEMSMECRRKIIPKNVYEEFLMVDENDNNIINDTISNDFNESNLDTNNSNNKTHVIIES
Assay: Inhibition of Plasmodium falciparum GSK3 assessed as remaining activity at 1 uM incubated for 2 hrs by luciferin-reagent based luminometer analysis relative to control

COc1cc(N2CCOCC2)ccc1Nc1ncc(Cl)c(Nc2ccccc2NS(C)(=O)=O)n1
Activity: 94%
